Patent US20250101137A1 (TRUSTEES OF TUFTS COLLEGE, published 2025)

Target: Botulinum neurotoxin serotype B (BoNT/B) holotoxin (Clostridium botulinum, UniProt P10844)
Experiment: SPR; immobilised form of BoNT/B not stated

B1: ciB-A11/B5 VHH heterodimer (bispecific antibody)
chain: GGGGLVQPGGALRLSCAASVFGMDYYYIGWVRQAPGKEREGVSCISNIGRTHYADSVKGRFTISRDNAKNTVYLQMNSLKPEDTAVYYCAAAPLVGNYCPASYEYESWGQGTQVTVSSAHHSEDPSGGGGSGGGGSGGGGSSGGGLVQPGGSLRLSCAASGQSLDNYIIGWFRQAPGKEREGVSCIDRTGTVTHYADSVKGRFTISTDNVKNTVYLEMNDLKPEDTATYFCAAERRWGVVSVCVISDYYFDSWGQGTQVTVSSAHHSEDPS
B1 gave a Kd of 5.3 nM.
